This test concerns ScGT1. The test is described as follows: Antiprion activity against scrapie prion protein-infected mouse ScGT1 cells assessed as accumulation of PrPSc at 1 uM after 5 days by Western blotting. The test is classed as cell-based. The method in brief:
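ScGT1 cells in DMEM with 10% FBS were split 1:10 into Petri dishes and grown 2 days at 37 °C, 5% CO2. Non-toxic compound concentrations (10 nM–2 μM) were then added. After 5 days, cell proteins were extracted, quantified, proteinase K-digested and western-blotted. PK-resistant PrPSc was quantified by densitometry. EC50 is half-maximal inhibition. Values are mean of three experiments with SD.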

Usually inhibition stands for the change of the read-out against control, counted positive when it falls.

As to `O=C1C=C(NCCCNc2c3c(nc4ccccc24)CCCC3)C(=O)C=C1NCCCNc1c2c(nc3ccccc13)CCCC2`, the inhibition was 3.6%.

Values taken from ChEMBL document CHEMBL1275403 (J Med Chem, 2010).
